The record followed here is article PMC7038234, “Screening of Natural Extracts for Inhibitors against Japanese Encephalitis Virus Infection” (Antimicrobial Agents and Chemotherapy, 2020).

Read-outs that look alike come from different tables or passages of the source.

The test system of this assay is JEV strain AT31.
The mark [1] stands for this setting: Primary screening of 1034 compounds in the natural extracts library.
The mark [2] stands for this setting: primary screening of 1034 compounds in the natural extracts library, red numbers = obvious cytotoxicity, blue numbers = insoluble in DMSO (colours not visible).

As for Cucurbitacin B, the “Inhibition (%)” value worked out at 6.371%.
`COc1ccccc1C=CC(=O)O` [2-Methoxycinnamic acid]: the “Inhibition (%)” value under setting [1] is listed as -0.2094%.
Still for that read-out and setting: in the case of Stevenleaf it was -22.5425%; in that of `CC(=O)OC1CC2CCC1(C)C2(C)C` (stereo not shown) [bomyl acetate], 3.447%.
Regarding `O=C1C=C(O)C(=O)c2ccccc21` [2-Hydroxy-1,4-naphoquinone], under setting [1], the “Inhibition (%)” value is recorded as 6.116%.
Still for that read-out and setting: under `COc1cc2c(cc1OC)[C@@H](Cc1ccc(O)c(Oc3cc4c(cc3OC)CCN(C)[C@@H]4Cc3ccc(O)cc3)c1)N(C)CC2` [Liensinine] stands 97.9975%.
For `C[C@@H]1CCCC2=CC(=O)[C@@H]3[C@@H](C3(C)C)[C@]21C` [Aristolone], the “Inhibition (%)” value under setting [1] is given as -1.243%.
For the compound Mogroside Ⅴ, the “Inhibition (%)” value under setting [2] was -27.6848%.
`COc1c(O[C@@H]2O[C@H](C(=O)O)[C@@H](O)[C@H](O)[C@H]2O)cc(O)c2c(=O)cc(-c3ccccc3)oc12` [Wogonoside]: the “Inhibition (%)” value under setting [1] was -2.571%.
On to `COC(=O)C1=CO[C@@H](O[C@@H]2O[C@H](CO)[C@@H](O)[C@H](O)[C@H]2O)[C@H]2[C@@H]1C(=O)C[C@@H]2C` [cornin], for which the “Inhibition (%)” value under setting [1] was 2.878%.
With `COc1cc2c(c(OC)c1OC)-c1c(cc(OC)c(OC)c1OC)C[C@@](C)(O)[C@@H](C)C2` [Schisandrol A], under setting [1], the “Inhibition (%)” value is given as 39.0598%.
In the case of `OC[C@H]1OC(O)[C@H](O)[C@@H](O)[C@@H]1O` (stereo partly drawn) [D(+)-Glucose], the “Inhibition (%)” value under setting [1] is 18.4575%.
Consider Isoeugenol, for which the “Inhibition (%)” value came to 1.471%.
For `O=C(O)/C=C/c1ccc(O)cc1` [p-Coumaric], under setting [2], the “Inhibition (%)” value was -9.857%.
On to `COc1cc2c(cc1O)CC[n+]1cc3c(OC)c(OC)ccc3cc1-2.[Cl-]`, for which the “Inhibition (%)” value under setting [1] is reported as 14.9639%.
On to `C[C@H](CO[C@@H]1O[C@H](CO)[C@@H](O)[C@H](O)[C@H]1O)[C@H]1CC[C@@]2(CC[C@]3(C)[C@H](CC[C@@H]4[C@@]5(C)CC[C@H](O[C@@H]6O[C@H](CO)[C@@H](O)[C@H](O)[C@H]6O[C@@H]6O[C@H](CO)[C@@H](O)[C@H](O)[C@H]6O)[C@@](C)(CO)[C@@H]5CC[C@]43C)[C@H]2O)CO1` [Hosenkoside B], for which the “Inhibition (%)” value under setting [1] was -11.0302%.
On to `CC(C)=CC[C@@H](OC(=O)C=C(C)C)C1=CC(=O)c2c(O)ccc(O)c2C1=O` [β,β-Dimethylacrylshikonin], for which the “Inhibition (%)” value under setting [2] was -31.5278%.
On to `COC1[C@H](O)[C@@H](O)C(O)[C@H](O)[C@H]1O` (stereo partly drawn) [L-Quebrachitol], for which the “Inhibition (%)” value under setting [1] is recorded as 3.754%.
With `C=C(C)[C@@H]1CC[C@@]2(C)CCC(=O)C(C)=C2C1` [α-Cyperone], the “Inhibition (%)” value under setting [1] was 3.063%.
Regarding `CC1(C)C2CCC1(C)C(OC1O[C@H](CO)[C@@H](O)[C@H](O)[C@H]1O)C2` (stereo partly shown) [Borneol-2-O-glucopyranoside], the “Inhibition (%)” value under setting [1] is given as -3.113%.
Regarding `CC(=O)O[C@H]1C(=O)[C@@]2(C)[C@H]([C@H](OC(=O)c3ccccc3)[C@]3(O)C[C@H](OC(=O)[C@H](O)[C@@H](NC(=O)c4ccccc4)c4ccccc4)C(C)=C1C3(C)C)[C@]1(OC(C)=O)CO[C@@H]1C[C@@H]2O` [7-Epitaxol], the “Inhibition (%)” value under setting [1] was 38.1409%.
On to `OCC1=C[C@@H](O)[C@]2(O[C@@H]3O[C@H](CO)[C@@H](O)[C@H](O)[C@H]3O)C=CO[C@@H](O[C@@H]3O[C@H](CO)[C@@H](O)[C@H](O)[C@H]3O)[C@H]12` [Melittoside], for which the “Inhibition (%)” value under setting [1] was -7.07%.
As to `CCCC(C)C(=O)O` (stereo not shown) [2-Methylvaleric acid], the “Inhibition (%)” value under setting [1] is 0.04244%.
In the case of `O=C1C=CC(=O)c2c(O)cccc21` [5-Hydroxy-1,4-naphthalenedione], the “Inhibition (%)” value under setting [1] worked out at 92.5916%.
On the same count and under the same terms, in the case of `COc1cc(O)c2c(=O)cc(-c3ccc(O)c(O)c3)oc2c1` [hydroxygenkwanin] it was -28.1662%.
Regarding (-)-Gallocatechin gallate, under setting [1], the “Inhibition (%)” value turned out to be 94.9741%.
Consider `O=C(/C=C/c1ccc(O)c(O)c1)O[C@@H]1C[C@@](OC(=O)/C=C/c2ccc(O)c(O)c2)(C(=O)O)C[C@@H](O)[C@@H]1O` [Cynarin;Cynarine], for which, under setting [1], the “Inhibition (%)” value was 13.5513%.
`COc1cc(C(=O)OCCCCN=C(N)N)cc(OC)c1O.Cl` [Leonurine hydrochloride]: the “Inhibition (%)” value under setting [1] is on record as 49.1267%.
On to `C[C@@H]1O[C@@H](O[C@H]2[C@H](OC(=O)[C@]34CCC(C)(C)C[C@H]3C3=CC[C@@H]5[C@@]6(C)C[C@H](O)[C@H](O[C@@H]7O[C@H](CO)[C@@H](O)[C@H](O)[C@H]7O)[C@@](C)(CO)[C@@H]6CC[C@@]5(C)[C@]3(C)CC4)O[C@H](CO)[C@@H](O)[C@@H]2O)[C@H](O)[C@H](O)[C@H]1O[C@@H]1OC[C@@H](O)[C@H](O)[C@H]1O` [Polygalasaponin F], for which the “Inhibition (%)” value under setting [1] was found to be 5.768%.
For the compound Evodiamine, the “Inhibition (%)” value is given as 15.3001%.
For `O=C(O)c1cc(O)c2c(c1)C(=O)c1cccc(O[C@@H]3O[C@H](CO)[C@@H](O)[C@H](O)[C@H]3O)c1C2=O` [Rhein-8-O-β-D-glucopyranoside], the “Inhibition (%)” value under setting [1] worked out at 11.2742%.
Take `CN1[C@H]2C[C@H](OC(=O)[C@H](CO)c3ccccc3)C[C@@H]1[C@@H](O)C2` (racemic) [Racanisodamine]: under setting [1], the “Inhibition (%)” value is on record as 0.9644%.
In the case of `C=C1C2CCC3(C4C[C@H]5C6(CCC[C@@]5(C)CN(CC)C46)[C@H]3[C@H]2O)[C@@H]1O` [Bullatine A], the “Inhibition (%)” value under setting [1] is recorded as 7.2916%.
Still for that read-out and setting: in the case of `COc1cc(/C=C/c2cc(O)cc(O)c2)ccc1O` [Isorhapontigenin] it was 45.8326%.
In the case of `C/C=C(/C)C(=O)OC(=O)/C(C)=C\C` [Angelic anhydride], the “Inhibition (%)” value under setting [1] is on record as 25.9819%.
On to p-Hydroxy-cinnamic acid, for which the “Inhibition (%)” value under setting [2] was -9.375%.
As for Ginkgolide C, the “Inhibition (%)” value is on record as -15.9339%.
For the compound `COc1ccc(C=O)cc1` [Anisic aldehyde], the “Inhibition (%)” value under setting [1] came out at 10.0208%.
Still for that read-out and setting: in the case of `C/C=C(/C)C(=O)O[C@H]1c2c(ccc3ccc(=O)oc23)OC(C)(C)[C@H]1OC(=O)/C(C)=C\C` [Praeruptorin B] it was 83.235%; in that of `O=C(/C=C/c1ccc(O)cc1)c1c(O)cc(O)cc1O` [Naringein chalcone], -2.063%; in that of `CCCCCC/C=C\CCCCCCCc1cccc(O)c1C(=O)O` [Ginkgolic Acid C15:1], 98.6651%.
With `O=C1C[C@@H](c2ccc(O)cc2)Oc2cc(O)ccc21` [Liquiritigenin], the “Inhibition (%)” value under setting [1] is reported as -13.6321%.
Take `COc1ccc(-c2oc3cc(OC)c(OC)c(O)c3c(=O)c2OC)cc1O` [Vitexicarpin]: the “Inhibition (%)” value under setting [1] is 34.179%.
Same read-out and setting: in the case of `COc1ccc(-c2cc(=O)c3c(O)cc(OC)cc3o2)cc1` [7,4'-Di-O-methylapigenin] it was 5.028%.
As for `COc1cc(-c2coc3c([C@@H]4O[C@H](CO)[C@@H](O)[C@H](O)[C@H]4O)c(O)ccc3c2=O)ccc1O` [Methoxypuerarin, 3'-], the “Inhibition (%)” value under setting [1] was determined as 10.4379%.
As for Liriope muscari baily saponins C, under setting [1], the “Inhibition (%)” value is on record as 97.5501%.
Take Asiaticoside: the “Inhibition (%)” value was 1.931%.
With `COc1cc2c(cc1O)C[C@@H]1NCCc3cc(OC)c(O)c-2c31` [Norisoboldine], the “Inhibition (%)” value under setting [1] is reported as -2.363%.
Still for that read-out and setting: in the case of Astragaloside I it was -4.592%.
